## Vif LAI: effect of single changes on growth against APOBEC3G

Vif of LAI (a laboratory-adapted subtype B strain), residues 12-115; positions count from the first residue of the whole protein:
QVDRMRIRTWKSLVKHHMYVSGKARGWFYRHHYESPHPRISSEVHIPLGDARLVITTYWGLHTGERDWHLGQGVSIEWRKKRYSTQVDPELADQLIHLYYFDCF

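A pool of vif mutants was passaged twice, 72 h each, on SupT1 cells that express APOBEC3G. Frequencies after the second round, in three biological replicates, were compared with the merged pool after the first round.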

The score is log2 enrichment against the wild-type codon: higher is better tolerated, lower is depleted.
A change reads original residue, position, new residue.
All changes here are to arginine.
The median of three replicates is given.
Input reads are the counts in the merged round-one pool, before selection.
Some changes are missing from the data or left out.

* G71R (input reads 34) = -0.24
* T74R (input reads 93) = -0.27
* G75R (input reads 546) = -2.55
* E76R (input reads 1385) = -1.53
* H80R (input reads 400) = -4.09
* L81R (input reads 31) = 1.11
* G82R (input reads 54) = 0.32
* Q83R (input reads 669) = 1.08
* G84R (input reads 713) = -0.70
* V85R (input reads 377) = -1.19
* S86R (input reads 531) = -1.74
* I87R (input reads 974) = -4.31
* E88R (input reads 488) = -1.04
* W89R (input reads 506) = -3.32
* K91R (input reads 821) = 0.42
* K92R (input reads 336) = -1.09
* S95R (input reads 560) = 0.52
* T96R (input reads 76) = 0.43
* V98R (input reads 46) = -3.33
* D99R (input reads 287) = -4.41
* E101R (input reads 82) = -0.50
* L102R (input reads 24) = -1.98
* L106R (input reads 304) = -1.54
* H108R (input reads 1013) = -1.80
* Y110R (input reads 371) = -1.25
* Y111R (input reads 175) = 3.77
* D113R (input reads 365) = -2.27

The opening 2 entries, copied out:

{"substitution": "G71R", "input reads": "34", "median score": -0.24}
{"substitution": "T74R", "input reads": "93", "median score": -0.27}

Positive scores are uncertain; some enriched variants did not exclude APOBEC3G in a separate test.
Replicates agree only moderately (rank correlation about 0.4-0.65); scores from under about 50 input reads tend to be too high.

Source: Langley et al. 2025, preprint (doi:10.1101/2025.10.20.683452), supplementary data.